Results of unrelated studies side by side (data: NIAID ChemDB).

Shared fields: growth or infection tests; organism: Plasmodium falciparum; measure: EC50

ECn: concentration that inhibits the pathogen or its effect by n%. Neighbouring rows are from separate reports. An empty or dashed field is not shown.

structure | cells | setting | strain | method | mutations | value
COc1ccc(/C=C/C=C/C(=O)c2ccc(Cl)cc2)cc1OC | - | - | INDO | SYBR Green / fluorescence | - | 26 µM
c1cc(C2=NCCN2)ccc1OCCCCCOc1ccc(C2=NCCN2)cc1 | - | - | W2 | hypoxanthine uptake | - | 0.548 µM
C[C@H]1Cc2c([nH]c3cc(F)c(F)cc23)[C@@]2(N1)C(=O)Nc1ccc(Cl)cc12 | - | - | GNF-Pf4492R-3 | SYBR Green / fluorescence | GNF-Pf4492-resistant A187V | 0.00288 µM
C=CCC[C@@H]1C[C@@H]2CC[C@@H]3C[C@H](CCC=C)NC(=N1)N32 | - | - | D6 | LDH | - | 10.62 µM
ClCCl | Human dermal fibroblasts | - | W2 | MTT | CQ-resistant | 42.5 µg/mL
CCN(CC)CCCC(C)Nc1ccnc2cc(Cl)ccc12 | - | - | KAE678R-1 | SYBR Green / fluorescence | KAE678-resistant pfatp4 G223R | 0.0124 µM
CCCCCC(=O)NCCCCCC(=O)NC(CCCC[NH3+])C(=O)NCCCCCCCCCCCC(=O)NC(CCCC[NH3+])C(N)=O | - | - | NF54 | hypoxanthine uptake | - | 5.6 µM
O=C(Nc1cc(C(F)(F)F)ccc1-n1cncn1)C1(c2ccccc2F)CC1 | - | - | 3D7A | - | - | 0.052 µM
CC[C@H]1OC(=O)[C@H](C)[C@@H](OC2C[C@@](C)(OC)[C@@H](O)[C@H](C)O2)[C@H](C)[C@@H](OC2O[C@H](C)C[C@H](N(C)C)[C@H]2O)[C@](C)(O)C[C@@H](C)CN(C)[C@H](C)[C@@H](O)[C@]1(C)O | RBC | 120 h | W2 Mef AziR | fluorescence | - | 0.9 µM
CCOC(=O)N/N=C(/OCC)C(C)(O)c1ccc2ccccc2c1 | - | - | 3D7 | hypoxanthine uptake / radiometric | - | 2 µM
Cn1cc(O)c(=O)cc1CNCCCNc1ccnc2cc(Cl)ccc12 | - | - | 3D7 | radiometric | - | 0.12 µM
NCCCCCCCCCCCC(=O)NC(CCCC[NH3+])C(=O)NCCCCCCCCCCCC(=O)NC(CCCC[NH3+])C(=O)NCCCCCCCCCCCC(=O)NC(CCCC[NH3+])C(=O)NCCCCCCCCCCCC(=O)NC(CCCC[NH3+])C(N)=O | - | - | FCR3 | hypoxanthine uptake | - | 2.2 µM
O=c1cc(CNCCNc2ccnc3cc(Cl)ccc23)n(C2CC2)cc1O | - | - | K1 | radiometric | - | 0.36 µM
NCCSC[C@H](N)C(=O)N(O)C1C[C@@H](C(N)=O)N(C(=O)c2ccc3nc(-c4ccccc4Br)[nH]c3c2)C1 | Red blood cells | 48 h | 3D7 | flow cytometry | - | 551 µM
CC1CC2CCCC3CC(CCc4ccccc4)N=C(N1)N32 | - | - | W2 | LDH | - | 12.45 µM
COc1cc(OC)c(OC)cc1/C=C/C=C/C(=O)c1ccc2ccccc2c1 | - | - | 3D7 | SYBR Green / fluorescence | - | 50 µM
N=C(N)c1ccc(OCCCCCOc2ccc(C(=N)N)cc2Cl)c(Cl)c1 | - | - | W2 | hypoxanthine uptake | - | 0.129 µM
CC(C)CC1(O)C(N)=Nc2ccc(Cl)cc21 | - | - | 3D7 | - | - | 0.232 µM
CC[C@H]1OC(=O)[C@H](C)[C@@H](OC2C[C@@](C)(OC)[C@@H](O)[C@H](C)O2)[C@H](C)[C@@H](OC2O[C@H](C)C[C@H](N(C)C)[C@H]2O)[C@](C)(OC2C[C@@H](N(C)C)[C@@H](O)[C@H](C)O2)C[C@@H](C)C(=O)[C@H](C)[C@@H](O)[C@]1(C)O | RBC | 120 h | W2 Mef AziR | fluorescence | - | 0.93 µM
N=C(N)c1cccc(OCCCCCOc2cccc(C(=N)N)c2)c1 | - | - | W2 | hypoxanthine uptake | - | 0.085 µM
CCOC(=O)N/N=C(/OC)C(C)(O)c1ccc2ccccc2c1 | - | - | 3D7 | hypoxanthine uptake / radiometric | - | 1.1 µM
NC1=Nc2ccc([N+](=O)[O-])cc2C1(O)c1ccccc1 | - | - | Dd2 | - | - | >5 µM
NCCCC[C@H](N)C(=O)N(O)C1C[C@@H](C(N)=O)N(C(=O)c2ccc(-c3cccc([N+](=O)[O-])c3)o2)C1 | Red blood cells | 48 h | 3D7 | flow cytometry | - | 172 µM
CCOC(C)=O | Human dermal fibroblasts | - | W2 | MTT | CQ-resistant | 58.3 µg/mL
CCCCCCCCCCCC(=O)NC(CCCC[NH3+])C(=O)NCCCCCCCC(=O)NC(CCCC[NH3+])C(=O)NC(CCCC[NH3+])C(=O)NCCCCCCCC(=O)NC(CCCC[NH3+])C(N)=O | - | - | NF54 | hypoxanthine uptake | - | >10 µM
COc1cc(OC)c(OC)cc1/C=C/C=C/C(=O)c1ccc(Cl)c(Cl)c1 | - | - | INDO | SYBR Green / fluorescence | - | 53 µM
CN(CCCNc1ccnc2cc(Cl)ccc12)Cc1cc(=O)c(O)cn1C | - | - | K1 | radiometric | - | 0.04 µM
C#CCC[C@@H]1C[C@@H]2CCC[C@@H]3C[C@H](CCC#C)NC(=N1)N32 | - | - | D6 | LDH | - | 14.13 µM
CCO/C(=N/NC(=O)OC(C)(C)C)C(C)(O)c1ccc(Cl)c(Cl)c1 | - | - | 3D7 | hypoxanthine uptake / radiometric | - | 4.9 µM
C[C@H]1Cc2c([nH]c3cc(Cl)c(F)cc23)[C@@]2(N1)C(=O)Nc1ccc(Cl)cc12 | - | - | GNF-Pf4492R-1 | SYBR Green / fluorescence | GNF-Pf4492-resistant A211T | 0.0000615 µM
CCCCC[C@@H]1C[C@@H]2CC[C@@H]3C[C@H](CCCCC)NC(=N1)N32 | - | - | D6 | LDH | - | 3.01 µM
COc1ccc2[nH]cc(C3(O)C(N)=Nc4ccc(Cl)cc43)c2c1 | - | - | 3D7 | - | - | >5 µM
Cc1cccc(CCC2CC3CCC4CC(C)NC(=N2)N34)c1 | - | - | W2 | LDH | - | 8.05 µM
O=C(/C=C/C=C/c1ccc2c(c1)OCO2)c1ccc(Cl)cc1 | - | - | 3D7 | SYBR Green / fluorescence | - | 50 µM
O=C1Nc2ccccc2C1(O)c1ccccc1 | - | - | Dd2 | - | - | >5 µM
COc1cc(C(=N)N)ccc1OCCCCOc1ccc(C(=N)N)cc1OC | - | - | D6 | hypoxanthine uptake | - | 0.389 µM
O=C(/C=C/C=C/c1ccc(Cl)cc1)c1ccc(Br)cc1 | - | - | 3D7 | SYBR Green / fluorescence | - | 22.5 µM
C=CCC[C@@H]1C[C@@H]2CCC[C@@H]3C[C@H](CCC=C)NC(=N1)N32 | - | - | W2 | LDH | - | 7.66 µM
CCCCCCCCCCCC(=O)NC(CCCC[NH3+])C(=O)NCCCCCCCC(=O)NC(CCCC[NH3+])C(=O)NCCCCCCCC(=O)NC(CCCC[NH3+])C(=O)NCCCCCCCC(=O)NC(CCCC[NH3+])C(=O)NCCCCCCCC(=O)NC(CCCC[NH3+])C(=O)NCCCCCCCC(=O)NC(CCCC[NH3+])C(N)=O | - | - | FCR3 | hypoxanthine uptake | - | 5.6 µM
NC1=Nc2ccc(I)cc2C1(O)c1ccccc1 | - | - | 3D7 | - | - | 0.289 µM
N=C(N)c1ccc(NCCCNc2ccc(C(=N)N)cc2[N+](=O)[O-])c([N+](=O)[O-])c1 | - | - | W2 | hypoxanthine uptake | - | 0.162 µM
CCOC(=O)N/N=C(/OCC)C(O)(CC)c1ccc(Cl)c(Cl)c1 | - | - | 3D7 | hypoxanthine uptake / radiometric | - | 2.9 µM
NC1=Nc2ccc(Cl)cc2C1(O)c1ccccc1 | - | - | Dd2 | - | - | 0.507 µM
CCCCCC(CCCCCC=O)NC(CCCC[NH3+])C(=O)NCCCCCCCCCCCC(=O)NC(CCCC[NH3+])C(=O)NC(C=O)CCCC[NH3+] | - | - | NF54 | hypoxanthine uptake | - | 1.2 µM
c1cc(C2=NCCN2)ccc1OCCCCOc1ccc(C2=NCCN2)cc1 | - | - | W2 | hypoxanthine uptake | - | 0.54 µM
Cn1cc(O)c(=O)cc1CNCCCCNc1ccnc2cc(Cl)ccc12 | - | - | 3D7 | radiometric | - | 0.67 µM
c1ccc(CNC23OC4C5C2C2C5C56CC25C3C46)cc1 | - | - | Dd2 | LDH / absorbance | - | >2 µM
COc1ccc(C(=O)/C=C/c2cccc3ccccc23)cc1 | - | - | 3D7 | SYBR Green / fluorescence | - | 16.5 µM
NCCCCCCCC(=O)NC(CCCC[NH3+])C(=O)NCCCCCCCC(=O)NC(CCCC[NH3+])C(=O)NCCCCCCCC(=O)NC(CCCC[NH3+])C(=O)NCCCCCCCC(=O)NC(CCCC[NH3+])C(N)=O | - | - | FCR3 | hypoxanthine uptake | - | 94 µM
CCCCCCCCCC1CC2CCC3CC(C)NC(=N1)N23 | - | - | D6 | LDH | - | 4.59 µM
CCCCCCCC(=O)NC(CCCC[NH3+])C(=O)NCCCCCCCC(=O)NC(CCCC[NH3+])C(=O)NCCCCCCCC(=O)NC(CCCC[NH3+])C(N)=O | - | - | FCR3 | hypoxanthine uptake | - | 2.7 µM
COc1cc2c(NC3CCN(C)CC3)nc(N3CCCN(C)CC3)nc2cc1OCc1ccccc1 | - | - | 3D7 | fluorescence | - | 0.1 µM
O=C(Nc1cc(C(F)(F)F)ccc1-n1cncn1)C1(c2ccccc2)CC1 | - | - | 3D7A | - | - | 0.103 µM
COc1cc(C(=N)N)ccc1OCCCOc1ccc(C(=N)N)cc1OC | - | - | W2 | hypoxanthine uptake | - | 0.116 µM
COc1cc(OC)c(OC)cc1/C=C/C(=O)c1ccc(Cl)cc1 | - | - | Dd2 | SYBR Green / fluorescence | - | 6.8 µM
NC(=O)C(CCCC[NH3+])NC(=O)CCCCCCCNC(=O)C(CCCC[NH3+])NC(=O)CCCCCCCNC(=O)C(CCCC[NH3+])NC(=O)CCCCCCCNC(=O)C(CCCC[NH3+])NC(=O)CCCCCCCNC(=O)C(N)CCCC[NH3+] | - | - | FCR3 | hypoxanthine uptake | - | 90 µM
CC(C)CCCC1CC2CCC3CC(C)NC(=N1)N23 | - | - | D6 | LDH | - | 3.04 µM
N=C(N)c1ccc(OCCOc2ccc(C(=N)N)cc2N)c(N)c1 | - | - | W2 | hypoxanthine uptake | - | 2.629 µM

The first 3 rows once more:

structure,cells,setting,strain,method,mutations,value
COc1ccc(/C=C/C=C/C(=O)c2ccc(Cl)cc2)cc1OC,-,-,INDO,SYBR Green / fluorescence,-,26 µM
c1cc(C2=NCCN2)ccc1OCCCCCOc1ccc(C2=NCCN2)cc1,-,-,W2,hypoxanthine uptake,-,0.548 µM
C[C@H]1Cc2c([nH]c3cc(F)c(F)cc23)[C@@]2(N1)C(=O)Nc1ccc(Cl)cc12,-,-,GNF-Pf4492R-3,SYBR Green / fluorescence,GNF-Pf4492-resistant A187V,0.00288 µM